Assay results as given in publication PMC10178204 (International Journal of Molecular Sciences, 2023).

experiment: general procedure: peptide synthesis; preloaded 2-chlorotrityl resin (Lol analogs); rink amide resin (C-terminal amides); conditions: whole synthesis, UV 220 nm

| Substance | final HPLC purity |
| --- | --- |
| 1-Oct-Aib-Lys-Leu-Leu-NH2 | Purity=95% |
| 1-Oct-Aib-Lys-Lys-Leu-Leu-NH2 | Purity=98% |
| 1-Oct-Leu-Aib-Lys-Ile-NH2 | Purity 91% |
| 1-Oct-Leu-Aib-Lys-Leu-NH2 | Purity=94% |
| 1-Oct-Leu-Lys-Aib-Leu-NH2 | Purity=98% |
| 1-Oct-Lys-Leu-Aib-Leu-NH2 | Purity=92% |
